{"source": "ChEMBL document CHEMBL3045952", "about": "“Design, synthesis, and fungicidal activity of novel analogues of pyrrolnitrin” (J Agric Food Chem, 2009)", "key": {"Fusarium graminearum": {"system": "Fusarium graminearum", "assay": "Fungicidal activity against Fusarium graminearum assessed as mycelium growth inhibition by mycelium growth rate method"}, "[1]": {"system": "Botryosphaeria berengeriana", "assay": "Fungicidal activity against Botryosphaeria berengeriana assessed as mycelium growth inhibition by mycelium growth rate method"}, "Alternaria solani": {"system": "Alternaria solani", "assay": "Fungicidal activity against Alternaria solani assessed as mycelium growth inhibition by mycelium growth rate method"}, "Mycosphaerella arachidis": {"system": "Mycosphaerella arachidis", "assay": "Fungicidal activity against Mycosphaerella arachidis assessed as mycelium growth inhibition by mycelium growth rate method"}, "Fusarium oxysporum": {"system": "Fusarium oxysporum", "assay": "Fungicidal activity against Fusarium oxysporum assessed as mycelium growth inhibition by mycelium growth rate method"}}}
{"smiles": "O=[N+]([O-])c1cc(-c2cc(F)c([N+](=O)[O-])cc2[N+](=O)[O-])cs1", "values": [{"measurement": "EC50", "setting": "Fusarium graminearum", "result": 18.5, "unit": "µg/mL"}, {"measurement": "EC50", "setting": "[1]", "result": 4.39, "unit": "µg/mL"}, {"measurement": "EC50", "setting": "Alternaria solani", "result": 33.5, "unit": "µg/mL"}, {"measurement": "EC50", "setting": "Mycosphaerella arachidis", "result": 9.36, "unit": "µg/mL"}, {"measurement": "EC50", "setting": "Fusarium oxysporum", "result": 38.4, "unit": "µg/mL"}]}
{"smiles": "O=[N+]([O-])c1cc([N+](=O)[O-])c(-c2ccsc2[N+](=O)[O-])cc1F", "values": [{"measurement": "EC50", "setting": "Fusarium graminearum", "result": 8.33, "unit": "µg/mL"}, {"measurement": "EC50", "setting": "[1]", "result": 3.57, "unit": "µg/mL"}, {"measurement": "EC50", "setting": "Alternaria solani", "result": 29.6, "unit": "µg/mL"}, {"measurement": "EC50", "setting": "Mycosphaerella arachidis", "result": 6.42, "unit": "µg/mL"}, {"measurement": "EC50", "setting": "Fusarium oxysporum", "result": 5.55, "unit": "µg/mL"}]}
